# PubChem BioAssay AID1066 (SRMLSC, 2008)
# Only a part is listed here, and it is no random draw. Active and inactive are the calls of the source.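 Rule for the calls: active = inhibition above a set limit, the median over all tested compounds plus 3 SD (cut at about 9.5% in these data); inconclusive = no clear call, values can overlap the other calls; inactive = the rest.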
# Test system: HMG-CoA reductase (Enterococcus faecalis, mvaE)
# Experiment: class II HMG-CoA reductase enzyme inhibition – biochemical, Enterococcus faecalis, primary screen (AID 1066);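 note: enzyme runs in reverse so mevalonate oxidation gives rising NADPH absorbance; 0% = complete reaction with DMSO and 100% = background rate lacking mevalonate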
# Conditions: purified E. faecalis HMGR, NADPH absorbance 340 nm kinetic; at 10 µM; stronger effect = higher value
row,SMILES,inhibition
1,COc1ccc(C(=O)NCC2(N3CCOCC3)CCCCC2)cc1OC,inactive: -6.75%
2,O=C(OC1CN2CCC1CC2)C1c2ccccc2C=Cc2ccccc21 (stereo not given),inactive: 2%
3,N/C(=N\O)c1c(N)no[n+]1[O-],inactive: 2.46%
4,N#Cc1ccc(C(=O)NCC2(N3CCCCC3)CCCCC2)cc1,inactive: -4.66%
5,c1ccc(CN2CCC(Nc3ccccc3)CC2)cc1,inactive: -0.07%
6,Fc1ccccc1NC1CCN(Cc2ccccc2)CC1,inactive: -2.88%
7,CN(C)c1ccc(C(=O)NCC2(N3CCCCC3)CCCCC2)cc1,inactive: -1.02%
8,CCN1CCC(Nc2cccc(F)c2)CC1,inactive: -4.82%
9,CC(C)(C)OC(=O)N1CCC(Nc2ccccc2)CC1,inactive: -3.43%
10,CCOc1ncccc1C(=O)NCC1(N2CCOCC2)CCCCC1,inactive: -0.82%
11,CCC(CO)(C(=O)OC1CN2CCC1CC2)c1ccccc1 (stereo not given),inactive: -4.41%
12,COc1cc(OC)cc(C(=O)NCC2(N3CCOCC3)CCCCC2)c1,inactive: 1.14%
13,COc1ccc(C(=O)NCC2(N3CCCCC3)CCCCC2)c(OC)c1OC,inactive: -1.45%
14,CCOC(=O)N1CCC(Nc2ccc(OC)cc2)CC1,inactive: -0.06%
15,O=C(OC1CN2CCC1CC2)C1c2ccccc2Oc2ccccc21 (stereo not given),inactive: -2.94%
16,O=C(NCC1(N2CCOCC2)CCCCC1)c1cc2ccccc2o1,inactive: -1.2%
17,COc1ccc(NC2CCN(CCc3ccccc3)CC2)c(OC)c1,inactive: 0.59%
18,O=C(NCC1(N2CCCCC2)CCCCC1)c1cccc([N+](=O)[O-])c1,inactive: 0.49%
19,N#CC1(Nc2ccccc2)CCN(CCc2ccccc2)CC1,inactive: -1.17%
20,COc1ccc(NC2CCN(C(=O)OC(C)(C)C)CC2)cc1,inactive: -2.57%
21,CN1CCN(CCOC(=O)C(O)(c2ccccc2)c2ccccc2)CC1,inactive: -4.2%
22,O=C(NCC1(N2CCOCC2)CCCCC1)c1cc(=O)[nH]c2ccccc12,inactive: -0.22%
23,COc1ccc(CN(CCCl)CCCl)cc1Cl,inactive: -2.14%
24,CN(C)c1cccc(C(=O)NCC2(N3CCCCC3)CCCCC2)c1,inactive: -2.45%
25,CC(C)c1ccc(NC2CCN(C(=O)OC(C)(C)C)CC2)cc1,inactive: -1.59%
